# Bridge positions count the residues as written; N and C are the ends. Square brackets hold non-standard residues; d marks the D form. Peptide text beside a SMILES is read from it.
# Columns and labels:
# [1] = Laurdan membrane fluidity assay
# [2] = Laurdan membrane fluidity assay; remark: listed apart in the source
compound,measurement,setting,value
"CC[C@H](C)[C@H](NC(=O)[C@H](CCCNC(=N)N)NC(=O)[C@H]1CCC(=O)NCCCC[C@H](NC(=O)[C@H](Cc2ccccc2)NC(=O)[C@H](Cc2c[nH]c3ccccc23)NC(=O)[C@@H]2CCCN2C(=O)[C@@H](NC(=O)[C@@H](N)Cc2ccccc2)C(C)C)C(=O)N[C@@H](CCCCN)C(=O)N[C@@H](Cc2ccccc2)C(=O)N[C@H](CC(C)C)C(=O)N1)C(=O)N[C@@H](CC(C)C)C(N)=O [Peptide 2, FVPWF[KKFle]RIL] (H-FVPWFKKF[dL][dE]RIL-NH2; lactam 6-10)",GPlaurdan,[1]; DOPG/DOPE/CL + cmpd 25 μM,-0.18
same,GPlaurdan,[1]; DOPG/DOPE/CL + cmpd 50 μM,0.07
same,GPlaurdan,[2]; DOPG/CL + cmpd 25 μM,-0.11
same,GPlaurdan,[2]; DOPG/CL + cmpd 50 μM,0.01

# Reference: article PMC12703733 (Journal of Medicinal Chemistry, 2025)
